Results as given in article PMC5385501.
For at least one entry, the source does not settle the construct or the ends of the probe.

Molecular target: NikR (UniProt A1YSQ9)
Assay: DNase I footprinting
Conditions: 150 uM NiSO4, protection from 9.7 nM tetramer; 20 mM Hepes pH 7.85, 50 mM KCl, 0.02% Igepal, 0.1 mM DTT, 10% glycerol, +/-150 uM NiSO4, ~20 fmol probe in 50 ul, 300 ng salmon sperm DNA, room temperature 15 min; recombinant protein; label: 5'-32P (one end); probe letters rebuilt from the primers and the genome; part of a longer molecule

Sequence | binding result
CAAAACAAAATTAAGGCATAATCACTCTTTTTAAAATAAAGGTCGCGTAGCTCAGTTGGTAGAGCACTACCTTGACATGGTAGTGGCCGCTGGTTCAAGTCCAGTCGTGGCCACCATTATCACTCCAATTTTAATTCTCATTTTTTTTGCGAGTTTTTGATCTTTATAAATTCTAAAGGGGTATTAAACGCGCTTCTAATAACGCTTTTATAGCGCTTCAAAAATATAACACTAATTCATTTTAAATAATAATTAGTTAATGAACGCTTCTGTTAATCTTAGTAAATCAAAACATTGCTACAATTACATCCAACCTTGATTTCGTTATGTCTTCAAGGAAAAACAC (double strand) [PureA probe (ureA / nrr2 HPnc0260 divergent promoter)] | binds
CACGTGCCCCTCAAATTAACATTGAAAACGGGTATTTTAAGTTTTTTAAGAAGCCTTAAGGAGCTTTGAAAAGAATTGCTGTTTTAAAACTTTATTGAGCGTATTTTTAAATAACGATTTACCTTAATCTTGTAATTTGTGAATAAACAAAACATTTACTTATCTTTTTTGTGATATTTGGCTGATTTGTAACAATGCTTTTAATAGGGTTGTGGTATAAATATTCTTATCAAGGTGTGCCAAACATGCCTTGAATCTCCATTTTATGAAAGGATTTGTTATGAGTGGATTGAAAAACATTTAGTTGTGTAGTGGTTTTATGCGGTG (double strand) [PdvnA probe] | binds
GGCTTACCCCTAAAGATTTAATTCAAAACAAAGAGTGGGATAAGATCACAGAAATTTGCAAGCGGGCGTTAGCTTAAGATAACAAAGAGATCATGGCATTTTGTATTTGCTTAATAACACTATAATAAAATTTTTAATAAGGAGATACATCATGTTAGAAAATGTCAAAAAATCCCTTTTTAGGGTTTTGTGCTTGGGTGCGTTGTGTTTAGGGGGGTTAATGGCAGAGCAAGACCCTAA (double strand) [PhcpC probe] | binds
